A mixed list of measured activities; the numbers were collected in NIAID ChemDB.

Common to all: tests in culture; species: Parainfluenza virus; endpoint: EC50

An empty or dashed field is not shown. a–b is a range or a potency band. ECn: concentration that inhibits the pathogen or its effect by n%. Neighbouring rows are from separate reports.

compound,strain,cell line,value
O=C1C=CN(COCCO)S(=O)(=O)N1COCCO,TYPE 3,VERO,>400 µg/mL
Cc1cccn2c(C3SCCS3)cnc12,TYPE 3,VERO,>1000 µM
CC(=O)OCCOCN1C(=O)C=CN(COCCO)S1(=O)=O,TYPE 3,VERO,>400 µg/mL
Nc1ncnc2c1ncn2[C@H]1C[C@@H](O)[C@H](O)[C@@H]1O,TYPE 3,VERO,0.2 µg/mL
O=c1ccn([C@@H]2C[C@H](CO)C[C@H]2CO)c(=O)[nH]1,TYPE 3,VERO,>100 µg/mL
Nc1ncnc2c1ccn2[C@@H]1C[C@H](O)[C@@H](O)[C@H]1O,TYPE 3,VERO,>0.07 µg/mL
Cc1ccn2c(C(SCCc3ccccc3)SCCc3ccccc3)cnc2c1,TYPE 3,VERO,>1000 µM
OC[C@H]1CC(n2cnc3c(NC4CC4)ncnc32)C[C@@H]1CO,TYPE 3,VERO,>100 µg/mL
CC1=CC(=O)N(c2ccccc2)S(=O)(=O)N1COCCO,TYPE 3,VERO,>400 µg/mL
Cc1ccn2c(C3OCCS3)cnc2c1,TYPE 3,VERO,>1000 µM
O=c1[nH]cnc2c1cnn2Cc1cn(CCCCO)nn1,TYPE 3,VERO,>400 µg/mL
N=C(N)c1ncn([C@@H]2O[C@H](CO)[C@@H](O)[C@H]2O)n1,,,1–100 µM
O=c1[nH]c(=O)n([C@@H]2C[C@H](CO)C[C@H]2CO)cc1I,TYPE 3,VERO,>100 µg/mL
OCCCCn1nncc1Cn1ncc2c(SCc3ccccc3)ncnc21,TYPE 3,VERO,>400 µg/mL
CCOC(=O)C1=CN(COCCO)S(=O)(=O)NC1=O,TYPE 3,VERO,>400 µg/mL
CSc1ncnc2c1cnn2Cc1cnnn1CCCCO,TYPE 3,VERO,>400 µg/mL
CC(=O)OCCOCN1C(=N)/C(=C(\C)O)C(N)=NS1(=O)=O,TYPE 3,VERO,>400 µg/mL

A second listing of 2 rows from above:

compound | strain | cell line | value
Nc1ncnc2c1ccn2[C@@H]1C[C@H](O)[C@@H](O)[C@H]1O | TYPE 3 | VERO | >0.07 µg/mL
O=c1[nH]cnc2c1cnn2Cc1cn(CCCCO)nn1 | TYPE 3 | VERO | >400 µg/mL